The data set concerns the target HV62 peptide (synthetic 62-residue polypeptide corresponding to residues 33-94 of human VAMP-2) (UniProt P63027).

Substance “recombinant wild-type TeTx L chain (freed from MBP with factor Xa)” yielded an initial rate of substrate cleavage at 37° C. with 100 nM L chain of 21.6 pmol/min.

The values above are taken from patent US7628992.
